# Source: paper PMC7557402, “Evaluation of Nucleoside Analogs as Antimicrobials Targeting Unique Enzymes in Borrelia burgdorferi” (Pathogens, 2020)
# System: Borrelia MTANs (Bgp, MtnN, Pfs)
# Assay: MTAN activity/kinetics, across the nucleosidases
# Assay type: biochemical
# Conditions: Ki and Ki’ compared with the other nucleosides
# Method: Enzyme specific activities were determined using previously reported optimal pH conditions (50 mM sodium phosphate, pH = 7, for Bgp, MtnN; 50 mM sodium phosphate-citrate, pH = 5, for Pfs) and a spectrophotometric activity assay that measures the decrease in UV absorbance at 275 nm that occurs when MTA is cleaved to 5-methylthioribose and adenine (ε275 = 1.6 mM^−1cm^−1). The extinction coefficients for cleavage of other nucleosides were experimentally validated and found to be the same for MSeA, FSBA, and IADO (ε275 = 1.6 mM^−1cm^−1). Due to the added UV absorbance imparted by the 5′ purine group found in PurTA, the enzyme reactions were followed spectrophotometrically at 260 nm using the experimentally determined extinction coefficient of ε260 = 5.6 mM^−1cm^−1. Enzyme specific activities for MTA were generally 1–2 U/mg (1 U = µmol MTA hydrolyzed/min). The enzyme specific activities for other nucleosides were determined and reported in U/mg and as the % max specific activity (relative to MTA at 100%).
# Kinetic constants have been previously reported for MTA [18]. […]
compound,measurement,value
"CCC[C@H]1N[C@@H](c2c[nH]c3c(N)ncnc23)[C@H](O)[C@@H]1O [dEt-ImmA, 5′-deoxy-5′-ethyl-immucillin A]",affinity for MTANs tighter than the other nucleosides,approximately 1000 fold
